Values from PubChem BioAssay AID504761 (Drosophila RNAi Screening Center, 2011).
The deposit covers about 22,000 reagents; this is an unselected part of those with a known target gene and a result. Over the whole deposit, 116 (0.52%) are marked active. 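Calls depend on retest data that are not deposited; infection was ranked per plate without normalising between plates; the unit of the infection score is not given.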 The raw values are shown without normalisation. Entries without a mark were called inactive. Further read-outs or replicates are left out here. No sequences are given here. Not given: the amount of reagent, the time to read-out.

- Test: 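Insect host genes that dengue virus relies on to spread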 (primary screen)
- System: D.Mel-2 cells from Drosophila
- Reagent: long dsRNA against Drosophila genes
- Challenge: infection with dengue virus type 2; dose and infection time not stated
- Read-out: 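Cells stained for dengue envelope protein and imaged; percent of infected cells per well on duplicate plates, ranked by infection, with stained nuclei counted for cell number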
- Scale: infection score: higher = more virus-infected cells; cell count: higher = more cells in the well
- Rule for the call: 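Very low infection ranking in both replicate wells (chance probability at most 0.065), then a retest showing infection dropped 1.5-fold or more at p below 0.05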
- Meaning of the calls: active = confirmed: knock-down lowers infection; inactive = not picked or not confirmed

roq [SID104190019]: infection score, replicate 1 = 1.38; cell count, replicate 1 = 6789
ntc [SID104187958]: infection score, replicate 1 = 22.2; cell count, replicate 1 = 4664
Tpc1 [SID104195406]: infection score, replicate 1 = 7.05; cell count, replicate 1 = 6142
Tpc1 [SID104195866]: infection score, replicate 1 = 2.93; cell count, replicate 1 = 6313
Tpc1 [SID104208034]: cell count, replicate 1 = 332
CG30470 (retired record) [SID104185345]: infection score, replicate 1 = 5.61; cell count, replicate 1 = 4420
CG30470 (retired record) [SID104186052]: infection score, replicate 1 = 10.8; cell count, replicate 1 = 6876
CG30470 (retired record) [SID104186053]: infection score, replicate 1 = 10.4; cell count, replicate 1 = 6698
CG30470 (retired record) [SID104186569]: infection score, replicate 1 = 5.32; cell count, replicate 1 = 6573
CG30470 (retired record) [SID104202540]: infection score, replicate 1 = 2; cell count, replicate 1 = 6105
SmydA-6 [SID104187133]: infection score, replicate 1 = 2.84; cell count, replicate 1 = 6306
mRpL40 [SID104195541]: infection score, replicate 1 = 16.3; cell count, replicate 1 = 4683
mRpL40 [SID104205808]: infection score, replicate 1 = 7.13; cell count, replicate 1 = 5611
CG6873 [SID104199806]: infection score, replicate 1 = 0.22; cell count, replicate 1 = 5858
CG12911 [SID104186018]: infection score, replicate 1 = 16.3; cell count, replicate 1 = 5921
CG12911 [SID104206519]: infection score, replicate 1 = 3.39; cell count, replicate 1 = 6458
Jarid2 [SID104190164]: infection score, replicate 1 = 7.78; cell count, replicate 1 = 6539
Npl4 [SID104195407]: infection score, replicate 1 = 3.19; cell count, replicate 1 = 6459
Npl4 [SID104195408]: infection score, replicate 1 = 3.72; cell count, replicate 1 = 4276
CG11085 [SID104199166]: infection score, replicate 1 = 6.87; cell count, replicate 1 = 5965
CG11085 [SID104202191]: infection score, replicate 1 = 1.36; cell count, replicate 1 = 5204
CG11085 [SID104203749]: infection score, replicate 1 = 2.33; cell count, replicate 1 = 6043
CG11403 [SID104198324]: infection score, replicate 1 = 8.84; cell count, replicate 1 = 5680
ihog [SID104182949]: infection score, replicate 1 = 4.18; cell count, replicate 1 = 5980
ihog [SID104208125]: cell count, replicate 1 = 393
CG14118 [SID104189914]: infection score, replicate 1 = 0.37; cell count, replicate 1 = 6262
mRpL9 [SID104195470]: infection score, replicate 1 = 10.6; cell count, replicate 1 = 5096
mRpL9 [SID104206072]: infection score, replicate 1 = 20.9; cell count, replicate 1 = 5162

3 neighbouring entries already listed, quoted:
CG30470 (retired record) [SID104186053]: infection score, replicate 1 = 10.4; cell count, replicate 1 = 6698
CG30470 (retired record) [SID104186569]: infection score, replicate 1 = 5.32; cell count, replicate 1 = 6573
CG30470 (retired record) [SID104202540]: infection score, replicate 1 = 2; cell count, replicate 1 = 6105
